Measured values: article PMC5298231, “The Malaria Parasite's Lactate Transporter PfFNT Is the Target of Antiplasmodial Compounds Identified in Whole Cell Phenotypic Screens” (PLoS Pathogens, 2017)
For part of its entries the source gives two or more results. The other results are left out here. There may be further records. The values listed for one entry differ, and nothing given here explains why; some may be repeats, others may stem from another dose, organism or construct than stated.

Tested on: erythrocytes infected with 3D7 trophozoites
Experiment: Untargeted LC-MS metabolite profiling, intracellular metabolites of parasitised erythrocytes
Assay type: cell-based, Plasmodium falciparum

## COc1ccc2c(c1)OC(O)(C(F)(F)C(F)(F)F)CC2=O (centres unmarked) [MMV007839]
  Isopentenylpyrophosphate log2 ratio (+MMV007839/-MMV007839): 0.3029, 0.5352, 0.1765
  Isopentenylpyrophosphate, Average: 0.3029, 0.5352, 0.1765
